Compound potency records, mixed from different reports. Data source: NIAID ChemDB in PubChem.

Common to all: enzyme or target tests; organism: HIV-1; target: Protease; measure: IC50

Two numbers with a dash give a range or band.

compound | strain or isolate | read by | value
COc1ccc(S(=O)(=O)N(CC(C)C)CC(O)C(NC(=O)c2cccc(N)c2C)Sc2ccccc2)cc1 | BRU | - | 0.01–1 µM
CC(C)C(C(=O)N[C@@H](Cc1ccccc1)[C@@H](O)[C@H](O)[C@H](Cc1ccccc1)NC(=O)C(C(C)C)N(C)C)N(C)C | - | fluorescence | <0.005 µM
Cc1cc(SC2=C(O)CC(CCc3ccc(O)cc3)(c3ccccc3)OC2=O)c(C(C)(C)C)cc1CO | - | HPLC / absorbance | 0.0216 µM
Cc1ccccc1CNC(=O)[C@H]1N(C(=O)[C@@H](O)[C@H](Cc2ccccc2)NC(=O)C(C)C(C)C(=O)OC[C@@H]2O[C@H](n3cc(C)c(=O)[nH]c3=O)C[C@H]2N=[N+]=[N-])CSC1(C)C | IIIB | - | <5 µM
CC1(C)CC[C@]2(C(=O)O)CC[C@]3(C)C(=CC[C@@H]4[C@@]5(C)C[C@@H](O)[C@H](O)C(C)(C)[C@@H]5CC[C@]43C)[C@@H]2C1 | - | HPLC | <17.9 µg/mL
CCCCCCCCCCCCCCCC(=O)N[C@@H](Cc1ccc(O)cc1)C(=O)N[C@@H](CCC(=O)O)C(=O)N[C@H](C(=O)O)c1ccc(OC(=O)c2ccccc2)cc1 | - | fluorescence | 0.05 µM
O=c1c(O)c(-c2ccc(O)cc2O)oc2cc(O)cc(O)c12 | - | fluorescence | 24 µM
CCOc1ccccc1CNC(=O)[C@H]1N(C(=O)[C@@H](O)[C@H](Cc2ccccc2)NC(=O)COc2c(C)cccc2C)CSC1(C)C | - | HPLC | >0.05 µM
CCCCCCCCCCCCCCCC(=O)N[C@@H](CO)C(=O)N[C@@H](Cc1ccc2ccccc2c1)C(=O)N[C@@H](CC(=O)O)C(=O)N[C@@H](CC(C)C)C(=O)O | - | fluorescence | 0.2 µM
CCCC1(CCc2ccc(O)cc2)CC(O)=C(Sc2cc(C)c(OCCO)cc2C(C)(C)C)C(=O)O1 | - | HPLC / absorbance | 0.006 µM
COc1ccc(CN2C[C@@H](O)[C@@H](Cc3ccccc3)N(Cc3cccc(N)c3)C(=O)N2Cc2cccc(N)c2)cc1 | - | fluorescence | 0.001 µM
CC(C)[C@H](NC(=O)N(C)Cc1ccccn1)C(=O)N[C@@H](Cc1ccccc1)[C@H](O)[C@@H](O)[C@H](Cc1ccccc1)NC(=O)[C@@H](NC(=O)N(C)Cc1ccccn1)C(C)C | - | fluorescence | <0.001 µM
CC(C(=O)O)C(C)C(=O)N[C@@H](Cc1ccccc1)[C@H](O)C(=O)N1CSC(C)(C)[C@H]1C(=O)NC(C)(C)C | IIIB | - | <5 µM
CC(=O)N[C@@H](Cc1ccccc1)C(=O)N[C@@H](CO)C(=O)N[C@H](C(=O)N[C@@H](CCC(=O)O)C(=O)N[C@@H](CC(C)C)C(=O)O)c1ccc(OC(=O)c2ccccc2)cc1 | - | fluorescence | 300.6 µM
Cc1cccc(C)c1OCC(=O)N[C@@H](Cc1ccccc1)[C@H](O)C(=O)N1CSC(C)(C)[C@H]1C(=O)NCc1ccc(C(N)=O)cc1 | - | HPLC | >0.05 µM
Cc1cc(SC2=C(O)CC(C)(CCc3ccc(O)cc3)OC2=O)c(C(C)(C)C)cc1OS(=O)(=O)c1cn(C)cn1 | - | HPLC | 0.002 µM
CC(C(=O)O)C(C)C(=O)N[C@@H](Cc1ccccc1)[C@H](O)C(=O)N1CSC[C@H]1C(=O)NC(C)(C)C | IIIB | - | <5 µM
CC(=O)O[C@H]1CC[C@]2(C)[C@H]3CC=C4[C@@H]5[C@@H](C)[C@H](C)CC[C@]5(C(=O)O)CC[C@@]4(C)[C@]3(C)CC[C@H]2C1(C)C | - | HPLC | 13 µM
O=C1N(c2ccncc2)[C@H](Cc2ccccc2)[C@H](O)CN(Cc2ccccc2)N1c1ccncc1 | - | fluorescence | 0.0041 µM
CC(C)C[C@H](NC(=O)[C@H](CCC(=O)O)NC(=O)[C@H](Cc1ccc(O)cc1)NC(=O)[C@H](CO)NC(=O)[C@@H](N)Cc1ccccc1)C(=O)O | - | fluorescence | 0.7 µM
Cc1ccccc1CNC(=O)[C@H]1N(C(=O)[C@@H](O)[C@H](Cc2ccccc2)NC(=O)C(C)C(C)C(=O)O)CSC1(C)C | IIIB | - | <5 µM
COC(=O)c1cccc(CNC(=O)[C@H]2N(C(=O)[C@@H](O)[C@H](Cc3ccccc3)NC(=O)COc3c(C)cccc3C)CSC2(C)C)c1 | - | HPLC | >0.05 µM
Cc1ccccc1CNC(=O)[C@H]1N(C(=O)[C@@H](O)[C@H](Cc2ccccc2)NC(=O)CC(C)(C)C(=O)O)CSC1(C)C | IIIB | - | <5 µM
Cc1cc(SC2=C(O)CC(CCc3ccc(O)cc3)(C3CCCCC3)OC2=O)c(C(C)(C)C)cc1OS(=O)(=O)N(C)C | - | - | 0.02 µM
CC(C)(C)NC(=O)[C@H]1N(C(=O)[C@@H](O)[C@H](Cc2ccccc2)NC(=O)CC(C)(C)C(=O)O)CSC1(C)C | IIIB | - | <5 µM
Cc1cccc(C)c1OCC(=O)N[C@@H](Cc1ccccc1)[C@H](O)C(=O)N1CSC(C)(C)[C@H]1C(=O)NC1CCc2ccccc21 | - | HPLC | <0.05 µM
COc1cc([C@H]2O[C@H](c3ccc(OC(C)C(O)c4ccc5c(c4)OCO5)c(OC)c3)[C@H](C)[C@H]2C)ccc1O | - | substrate cleavage | >125 µM
COC(=O)CCCNC(=O)CCCCC(=O)N[C@H]1CC[C@@]2(C)C(CC[C@]3(C)C2CC=C2C4CC(C)(C)CC[C@]4(C(=O)OC)CC[C@]23C)C1(C)C | - | HPLC | >20 µM
CC(C)(C)NC(=O)[C@@H]1CSCN1C(=O)[C@@H](O)[C@H](Cc1ccccc1)NC(=O)CC(C)(C)C(=O)O | IIIB | - | <5 µM
CC(C)[C@H](NC(=O)OCc1cccnc1)C(=O)N[C@@H](Cc1ccccc1)[C@@H](O)[C@@H](O)[C@H](Cc1ccccc1)NC(=O)OC(C)(C)C | - | fluorescence | >0.001 µM
Nc1c(N=Nc2ccc(-c3ccc(N=Nc4cc(S(=O)(=O)O)c5ccccc5c4N)cc3)cc2)cc(S(=O)(=O)O)c2ccccc12 | - | - | 0.78 µM
Cc1cn([C@@H]2C[C@@H](N=[N+]=[N-])[C@H](COC(=O)C(C)(C)CC(=O)N[C@@H](Cc3ccccc3)[C@H](O)C(=O)N3CSC[C@H]3C(=O)NC(C)(C)C)O2)c(=O)[nH]c1=O | IIIB | - | >5 µM
O=c1cc(-c2ccc(O)cc2)oc2cc(O)cc(O)c12 | - | fluorescence | 60 µM
Cc1ccccc1CNC(=O)[C@@H]1CSCN1C(=O)[C@@H](O)[C@H](Cc1ccccc1)NC(=O)CC(C)(C)C(=O)OC[C@@H]1O[C@H](n2cc(C)c(=O)[nH]c2=O)C[C@H]1N=[N+]=[N-] | IIIB | - | >5 µM
COC(=O)[C@]12CCC(C)(C)C[C@H]1C1=CC[C@@H]3[C@@]4(C)CC/C(=N\OC(=O)CCCCC(=O)OC[C@H]5O[C@@H](n6cc(C)c(=O)[nH]c6=O)C[C@@H]5N=[N+]=[N-])C(C)(C)[C@@H]4CC[C@@]3(C)[C@]1(C)CC2 | - | HPLC | 16 µM
COc1cc(-c2cc(=O)c3c(O)c(OC)c(OC)c(OC)c3o2)cc(OC)c1OC | - | fluorescence | 11 µM
Cc1cn([C@H]2C[C@H](N=[N+]=[N-])[C@@H](COC(=O)CCCCC(=O)N[C@H]3CC[C@]4(C)[C@H]5CC=C6[C@@H]7CC(C)(C)CC[C@]7(C(=O)O)CC[C@@]6(C)[C@]5(C)CC[C@H]4C3(C)C)O2)c(=O)[nH]c1=O | - | HPLC | 1.2 µM
CC(C)CCC[C@@H](C)[C@H]1CC[C@H]2[C@@H]3CC[C@H]4C[C@@H](CCC=C(c5cc(Cl)c(O)c(C(=O)O)c5)c5cc(Cl)c(O)c(C(=O)O)c5)CC[C@]4(C)[C@H]3CC[C@]12C | - | HPLC | 0.55 µM
C[C@@H]1CC[C@]2(C(=O)O)CC[C@]3(C)C(=CC[C@@H]4[C@@]5(C)C[C@@H](O)[C@H](O)C(C)(C)[C@@H]5CC[C@]43C)[C@@H]2[C@]1(C)O | - | HPLC | ~17.9 µg/mL
Cc1cc(SC2=C(O)CC(CCc3ccc(O)cc3)(C(C)C)OC2=O)c(C(C)(C)C)cc1CO | - | HPLC | 0.00363 µM
CC[C@H](C)[C@H](NC(=O)OCc1ccccc1)C(=O)N[C@@H](Cc1ccccc1)C(O)[C@H](Cc1ccccc1)NC(=O)OC(C)(C)C | - | fluorescence | >0.01 µM
C[C@@H]1CC[C@]2(C(=O)O)CC[C@]3(C)C(=CC[C@@H]4[C@@]5(C)C[C@@H](O)C(=O)C(C)(C)C5CC[C@]43C)C2[C@]1(C)O | - | HPLC | <17.9 µg/mL

For reference, 2 entries again:

O=c1c(O)c(-c2ccc(O)cc2O)oc2cc(O)cc(O)c12 ; read by: fluorescence ; value: 24 µM
Cc1cn([C@@H]2C[C@@H](N=[N+]=[N-])[C@H](COC(=O)C(C)(C)CC(=O)N[C@@H](Cc3ccccc3)[C@H](O)C(=O)N3CSC[C@H]3C(=O)NC(C)(C)C)O2)c(=O)[nH]c1=O ; strain or isolate: IIIB ; value: >5 µM

Blank or dashed fields: not listed here. ICn: concentration for n% inhibition. Lines come from different laboratories, so protocols vary.